One substance from publication PMC5459902 (Scientific Reports, 2017) can be followed below.

This data set deals with CC(C)[C@H](NC[C@@]1(O)OC[C@@H](O)[C@@H](O)[C@@H]1O)C(=O)O. Kind of data set: purified protein. The settings on record: oxidase activity, O2 as electron acceptor, 10 mM potassium phosphate pH 7.0, 298 K, 25.0 °C.

For the substance “PnFPOX (Parastagonospora nodorum SN15; N56A)”, the Michaelis constant (Km) amounted to 109 ± 6.2 µM, the Vmax worked out at 5.47 µmol/min/mg and the Vmax/Km was found to be 50200 µL/min/mg.

A word on the Km: it is the substrate concentration at which the rate is half of its maximum. Usually Vmax stands for the top rate of the reaction or transport when substrate is in excess.
